A mixed list of measured activities; the numbers were collected in NIAID ChemDB.

Shared fields: growth or infection tests

Percent inhibition refers to the dose given; in toxicity tests it is the harm to the cells.

compound | dose | strain | cells | read by | species | read-out | value
COc1cc2c(cc1OC)[C@@]13CCN4CC5=CCO[C@H]6CC(=O)N2[C@H]1[C@H]6[C@H]5C[C@H]43 |  | KOS | HeLa | cytopathic effect | Herpes simplex virus 1 | EC50 | >200 µg/mL
O=C(NCc1ccc(Cl)cc1)c1cn2c(CO)cc3cc(CN4CCOCC4)cc(c1=O)c32 |  |  |  |  | Herpes simplex virus | EC50 | <0.02 µM
O=C(O)P(=O)(O)O | 100 µM | B4327UR | SIRC | plaque count | Herpes simplex virus 2 | inhibition | 96%
Nc1nc2c(ncn2COCCOP(=O)(O)C(=O)O)c(=O)[nH]1 |  | AVD | VERO | cytopathic effect | Herpes simplex virus 1 | EC95 | 286 µM
CCCCC/C=C\C/C=C\CCCCCCCC(=O)O |  | KOS | HeLa | cytopathic effect | Herpes simplex virus 1 | EC50 | >200 µg/mL
O=C1Cn2cc(C(=O)NCc3ccc(Cl)cc3)c(=O)c3cc(CN4CCOCC4)cc(c32)N1 |  |  |  |  | Herpes simplex virus | EC50 | <0.51 µM
Nc1nc2c(ncn2COCCO)c(=O)[nH]1 | 132 µM | TK- | VERO | cytopathic effect | Herpes simplex virus 2 | inhibition | >25%
CCC#Cc1ccc2c(c1)c(=O)c(C(=O)NCc1ccc(Cl)cc1)nn2C | 20 µM |  |  |  | Herpes simplex virus | inhibition | 90%
CCOC(=O)P(=O)(OC)OC[C@H]1O[C@@H](n2cc(CCCl)c(=O)[nH]c2=O)C[C@@H]1O | 227 µM | K979 | VERO | cytopathic effect | Herpes simplex virus 2 | inhibition | >25%
O=C(O)P(=O)(O)O |  | PMEA-resistant-1 | HeLa | virus yield | Herpes simplex virus 1 | EC90 | 3000 µM
CN1CCC[C@H]1c1cccnc1 |  | KOS | HeLa | cytopathic effect | Herpes simplex virus 1 | EC50 | >200 µg/mL
O=c1[nH]c(=O)n([C@H]2C[C@H](O)[C@@H](CO)O2)cc1/C=C/Br |  | KOS PFA-resistant | HEL | cytopathic effect | Herpes simplex virus 1 | EC50 | 0.004 µg/mL
CN1C[C@H](C(=O)N[C@]2(C)O[C@@]3(O)[C@@H]4CCCN4C(=O)[C@H](Cc4ccccc4)N3C2=O)C=C2c3cccc4[nH]cc(c34)C[C@H]21 |  | KOS | HeLa | cytopathic effect | Herpes simplex virus 1 | EC50 | >200 µg/mL
CCc1cn([C@H]2C[C@H](O)[C@@H](CO)O2)c(=O)nc1N |  |  |  | cytopathic effect | Herpes simplex virus | EC50 | 40 µg/mL
CCCCCCCC/C=C\CCCCCCCCCCCC(=O)O |  | KOS | HeLa | cytopathic effect | Herpes simplex virus 1 | EC50 | >200 µg/mL
CCOC(=O)P(=O)(OC)OC[C@H]1O[C@@H](n2cc(I)c(=O)[nH]c2=O)C[C@@H]1O | 5.9 µM | K979 | VERO | cytopathic effect | Herpes simplex virus 2 | inhibition | >25%
O=[N+]([O-])c1ncc[nH]1 |  | KOS | HeLa | cytopathic effect | Herpes simplex virus 1 | EC50 | >200 µg/mL
Nc1nc(=O)n([C@@H]2O[C@H](CO)[C@@H](O)[C@@H]2F)cc1I |  | KOS GCV-resistant | HEL | cytopathic effect | Herpes simplex virus 1 | EC50 | 7.35 µg/mL

The first 2 rows once more:

compound | dose | strain | cells | read by | species | read-out | value
COc1cc2c(cc1OC)[C@@]13CCN4CC5=CCO[C@H]6CC(=O)N2[C@H]1[C@H]6[C@H]5C[C@H]43 |  | KOS | HeLa | cytopathic effect | Herpes simplex virus 1 | EC50 | >200 µg/mL
O=C(NCc1ccc(Cl)cc1)c1cn2c(CO)cc3cc(CN4CCOCC4)cc(c1=O)c32 |  |  |  |  | Herpes simplex virus | EC50 | <0.02 µM

An empty or dashed field is not shown. Conditions beyond the fields shown may differ between rows. ECn: concentration that inhibits the pathogen or its effect by n%.